Target: T1, human MAPKK3 (UniProt P46734)
T1 sequence: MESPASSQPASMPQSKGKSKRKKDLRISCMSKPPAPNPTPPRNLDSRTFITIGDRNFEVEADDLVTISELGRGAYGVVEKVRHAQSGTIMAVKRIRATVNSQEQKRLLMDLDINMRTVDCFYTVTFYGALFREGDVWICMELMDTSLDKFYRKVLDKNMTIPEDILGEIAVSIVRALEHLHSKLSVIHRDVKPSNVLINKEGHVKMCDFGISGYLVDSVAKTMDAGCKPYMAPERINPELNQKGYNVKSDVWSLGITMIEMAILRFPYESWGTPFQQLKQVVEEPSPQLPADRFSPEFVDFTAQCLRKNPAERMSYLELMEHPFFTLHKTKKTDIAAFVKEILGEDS

anthrax lethal factor (LF)
cleavage by LF: LF also cleaves MAPKK3
